Measured values as given in patent US20050176758A1, “NOVEL COMPOUNDS AND METHODS FOR SYNTHESIS AND THERAPY” (priority 1995, published 2005).

Sequences of proteins named here, by UniProt entry; tags and fusion partners are left off.
UniProt P03468, whole entry: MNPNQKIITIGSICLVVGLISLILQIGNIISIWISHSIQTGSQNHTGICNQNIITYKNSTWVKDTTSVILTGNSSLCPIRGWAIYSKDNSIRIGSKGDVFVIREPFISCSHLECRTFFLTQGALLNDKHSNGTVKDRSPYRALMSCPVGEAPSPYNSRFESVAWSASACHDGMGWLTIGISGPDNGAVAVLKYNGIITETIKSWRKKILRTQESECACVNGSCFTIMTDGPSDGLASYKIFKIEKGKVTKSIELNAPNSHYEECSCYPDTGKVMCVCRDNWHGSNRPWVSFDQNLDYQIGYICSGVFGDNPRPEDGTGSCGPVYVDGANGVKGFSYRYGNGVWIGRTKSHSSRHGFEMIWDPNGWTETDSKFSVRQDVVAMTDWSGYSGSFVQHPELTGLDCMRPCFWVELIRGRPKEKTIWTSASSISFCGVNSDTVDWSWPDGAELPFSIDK

Target: neuraminidase (Influenza A virus, UniProt P03468)

Compound: CC[C@H](C)O[C@@H]1C=C(C(=O)O)C[C@H](NC(=N)N)[C@H]1NC(C)=O
- IC50: < 1 µM

Compound: CC[C@@H](C)O[C@@H]1C=C(C(=O)O)C[C@H](NC(=N)N)[C@H]1NC(C)=O
- IC50: < 1 µM
